From patent publication US6077680A (dated 2000) come the findings set out here.

One assay addresses Kv1.3 potassium channel of human T lymphocytes (human) (UniProt P22001).
Test: not given
For the substance ShK R11Q (peptide), the equipotent molar ratio (analog IC50/ShK IC50) for block of Kv1.3 current came to 42.

Take ShK R24A (peptide): the equipotent molar ratio (analog IC50/ShK IC50) for block of Kv1.3 current came to 2.4.

The next assay concerns the target rat brain membrane K channels (delayed rectifier, primarily Kv1.2) (rat) (UniProt P63142).
Test: not given
Take ShK K22E (peptide): the IC50 ratio (analog IC50/ShK IC50) was determined as 726 and the free energy difference of binding was 16.2 kJ/mol.

Another assay shares this target.
Test: not given
The source holds these as a separate data set.
For ShK Y23A (peptide), the IC50 ratio (analog IC50/ShK IC50) came out at 108 and the free energy difference of binding is 11.5 kJ/mol.

For a further assay the target is unchanged.
Test: not given
The source holds these as a separate data set.
As for ShK R11A (peptide), the IC50 ratio (analog IC50/ShK IC50) came to 2 and the free energy difference of binding was found to be 1.72 kJ/mol.

In the case of ShK R11E (peptide), the IC50 ratio (analog IC50/ShK IC50) was 30.8 and the free energy difference of binding came out at 8.41 kJ/mol.

The target is the same in a further assay.
Test: not given
This is another data set of the same source.
With ShK F15 p-azido-Phe (peptide), the IC50 ratio (analog IC50/ShK IC50) stood at 1.4 and the free energy difference of binding amounted to 0.837 kJ/mol.

Turning to ShK H19K (peptide), the IC50 ratio (analog IC50/ShK IC50) was 2.6 and the free energy difference of binding amounted to 2.34 kJ/mol.

Another assay has the same target. The experiment in a line: 125I-DTX displacement, rat brain membranes.
As for ShK F27A (peptide), the IC50 ratio (analog IC50/ShK IC50) turned out to be 15.3 and the free energy difference of binding is 6.65 kJ/mol.

For ShK H19K (peptide), the IC50 ratio (analog IC50/ShK IC50) is 2.6 and the free energy difference of binding amounted to 2.34 kJ/mol.

Turning to ShK K22E (peptide), the IC50 ratio (analog IC50/ShK IC50) is 726 and the free energy difference of binding stood at 16.2 kJ/mol.

For ShK K30A (peptide), the IC50 ratio (analog IC50/ShK IC50) turned out to be 5.3 and the free energy difference of binding amounted to 4.1 kJ/mol.

As for ShK L25A (peptide), the IC50 ratio (analog IC50/ShK IC50) amounted to 1.4 and the free energy difference of binding came to 0.837 kJ/mol.

Consider ShK Q16A (peptide), for which the IC50 ratio (analog IC50/ShK IC50) is 1 and the free energy difference of binding is 0 kJ/mol.

Regarding ShK Q16E (peptide), the IC50 ratio (analog IC50/ShK IC50) amounted to 2.8 and the free energy difference of binding worked out at 2.51 kJ/mol.

ShK R11A (peptide): the IC50 ratio (analog IC50/ShK IC50) was 2 and the free energy difference of binding was 1.72 kJ/mol.

Take ShK R11E (peptide): the IC50 ratio (analog IC50/ShK IC50) amounted to 30.8 and the free energy difference of binding stood at 8.41 kJ/mol.

On to ShK S20A (peptide), for which the IC50 ratio (analog IC50/ShK IC50) amounted to 5.9 and the free energy difference of binding is 4.35 kJ/mol.

As for ShK T13A (peptide), the IC50 ratio (analog IC50/ShK IC50) was found to be 1.7 and the free energy difference of binding was determined as 1.3 kJ/mol.

Turning to ShK T34A (peptide), the IC50 ratio (analog IC50/ShK IC50) stood at 1 and the free energy difference of binding is 0 kJ/mol.

ShK Y23A (peptide): the IC50 ratio (analog IC50/ShK IC50) amounted to 108, the free energy difference of binding is 11.5 kJ/mol and the increase in the relative free energy of binding is over 11.7 kJ/mol.

The next assay deals with cloned Kv1.3 channel, wild type. The assay can be described thus: double-mutant cycle analysis, electrophysiology.
“ShK toxin (synthetic, wild type) (peptide)” had a coupling energy (ΔΔG) of the mutant cycle Kv1.3(D386→K)-ShK(K22→Nle) of 0.222 kJ/mol and a coupling energy (ΔΔG) of the mutant cycle Kv1.3(D386→K)-ShK(R11→A) of 5.86 kJ/mol.
